Source: PubChem BioAssay AID1259414 (Drosophila RNAi Screening Center, 2018)
The deposit covers about 24,000 reagents; this is an unselected part of those that have a named target and a result. Over the whole deposit, about 1,210 (5%) are marked active. 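Inactive calls also include excluded dsRNAs with several or no targets, genes unexpressed in JW18, and well A1, regardless of score.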

Purpose: 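Host factors increasing or decreasing Wolbachia levels in cultured fly cells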 (primary screen)
Cells: Drosophila JW18 cells infected with Wolbachia
Reagents: long dsRNA against Drosophila genes, 0.25 µg dsRNA per well of a 384-well plate
Duration: 5 days
Treatment: cells persistently infected with Wolbachia before knock-down; no added drug
Detection: 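Automated imaging of bacterial rRNA staining divided by host cell count, reported as plate-normalised robust z-score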
Scale: Wolbachia per cell robust z: higher = more Wolbachia per host cell than the plate typical
Rule for the call: 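Hit when robust z is 1.5 or more, or -1.5 or less, in at least two of three replicates; excludes dsRNAs with several or no targets, genes not expressed in JW18 and well A1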

target | amplicon | Wolbachia per cell robust z, rep 1 | Wolbachia per cell robust z, rep 2 | Wolbachia per cell robust z, rep 3 | activity call
CG14273 | DRSC02377 | -0.0977 | 0.118 | 0.801 | inactive
CG14273 | DRSC27247 | -0.727 | -7.01 | -0.144 | inactive
sqd (squid) | DRSC15160 | 0.485 | 0.0258 | 0.37 | inactive
sqd (squid) | DRSC17066 | 0.62 | -1.15 | 0.888 | inactive
sqd (squid) | DRSC22954 | 0.929 | 0.384 | -0.659 | inactive
sqd (squid) | DRSC27200 | -0.515 | 0.232 | -6.12 | inactive
sqd (squid) | DRSC29779 | -7.58 | 0.748 | -1.05 | inactive
mtsh (mitoshell) | DRSC03070 | -0.643 | -0.854 | -0.129 | inactive
Smyd4-1 (SET and MYND domain containing, class 4, member 1) | DRSC06785 | 0.967 | 0.342 | 1.21 | inactive
Smyd4-1 (SET and MYND domain containing, class 4, member 1) | DRSC27142 | 0.712 | -1.19 | -0.124 | inactive
Rab18 | DRSC18702 | 0.457 | 0.191 | 0.255 | inactive
Rab18 | DRSC26667 | 1.22 | -1.29 | 0.837 | inactive
CG7557 | DRSC10878 | 0.145 | -0.808 | 0.558 | inactive
CG7557 | DRSC28227 | -1.43 | -0.0505 | 0.321 | inactive
CG13272 | DRSC02249 | -0.329 | -2.34 | 0.467 | inactive
CG13272 | DRSC22910 | -1.36 | 0.137 | -1.25 | inactive
CG13272 | DRSC28613 | 0.387 | -0.0221 | 0.299 | inactive
CG14511 | DRSC14863 | 0.387 | 0.428 | 1.28 | inactive
CG14511 | DRSC26574 | -0.488 | -1.23 | 0.266 | inactive
CG5597 | DRSC04517 | -0.521 | -9.4 | -1.84 | inactive
Btk (Bruton tyrosine kinase) | DRSC02008 | 0.209 | -0.196 | -0.357 | inactive
Btk (Bruton tyrosine kinase) | DRSC02666 | 0.353 | -1.68 | -0.586 | inactive
Btk (Bruton tyrosine kinase) | DRSC22427 | -2.16 | -0.156 | -0.328 | inactive
CG1468 | DRSC17946 | -0.269 | 0.393 | -0.959 | inactive
CG1468 | DRSC25538 | 1.27 | 0.553 | -0.39 | inactive
GstT3 (Glutathione S transferase T3) | DRSC20541 | -2.05 | -1.8 | -3.67 | active
sphinx2 | DRSC22188 | 0.238 | -0.735 | 1.47 | inactive
sphinx2 | DRSC24771 | -0.395 | -0.8 | 0.085 | inactive
rho (rhomboid) | DRSC08734 | 0.0242 | 0.0343 | 0.356 | inactive
rho (rhomboid) | DRSC40738 | -2.42 | -2.25 | -2.17 | active

Look-ups from the entries so far.
Entry of Btk (Bruton tyrosine kinase) [DRSC02666] in “Wolbachia per cell robust z, rep 3”: -0.586
Entry for Rab18 [DRSC26667] under “Wolbachia per cell robust z, rep 3”: 0.837
Result of CG7557 [DRSC28227] under “Wolbachia per cell robust z, rep 2”: -0.0505
Under “Wolbachia per cell robust z, rep 1”, CG14511 [DRSC14863] shows 0.387

More reagents:
target | amplicon | Wolbachia per cell robust z, rep 1 | Wolbachia per cell robust z, rep 2 | Wolbachia per cell robust z, rep 3 | activity call
Frq1 (Frequenin 1) | DRSC19961 | 1.03 | -0.543 | -1.4 | inactive
Frq1 (Frequenin 1) | DRSC25439 | -0.776 | -1.76 | -1.31 | inactive
Su(var)3-3 (Suppressor of variegation 3-3) | DRSC10250 | -2.45 | -2.43 | 0.385 | active
Su(var)3-3 (Suppressor of variegation 3-3) | DRSC24846 | -0.858 | -1.03 | -1.37 | inactive
CG10651 | DRSC02086 | -4.7 | -0.139 | -8.01 | inactive
TfIIEalpha (Transcription factor IIEalpha) | DRSC11303 | -0.102 | -7.53 | 0.0227 | inactive
TfIIEalpha (Transcription factor IIEalpha) | DRSC27748 | -1.17 | -0.486 | 0.00331 | inactive
kek6 (kekkon 6) | DRSC15299 | 0.709 | 0.198 | 0.844 | inactive
kek6 (kekkon 6) | DRSC23759 | 0.632 | -0.137 | -1.51 | inactive
CG14854 | DRSC14978 | -0.715 | -0.636 | 0.719 | inactive
ninaD (neither inactivation nor afterpotential D) | DRSC02886 | 0.391 | -3.64 | -0.166 | inactive
ninaD (neither inactivation nor afterpotential D) | DRSC24484 | -1.03 | -0.856 | -1.27 | inactive
dpr5 (defective proboscis extension response 5) | DRSC15766 | -2.2 | -4.87 | -3.46 | inactive
dpr5 (defective proboscis extension response 5) | DRSC25239 | 0.829 | 0.433 | 0.43 | inactive
CG9626 | DRSC16525 | 0.322 | 0.659 | -2.21 | inactive
CG9626 | DRSC27021 | -0.234 | -0.957 | -4.14 | inactive
